PubChem BioAssay AID1259414 – Drosophila RNAi Screening Center, 2018
In all, the deposit lists about 24,000 reagents; this is an unselected part of those that have a named target and a result. Of all reagents, about 1,210 (5%) are marked active. 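Inactive calls also include excluded dsRNAs with several or no targets, genes unexpressed in JW18, and well A1, regardless of score.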 Reagents against one gene are numbered here. A plus sign joins genes that one reagent is predicted to hit.

Aim: 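Host factors increasing or decreasing Wolbachia levels in cultured fly cells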 (primary screen)
System: Drosophila JW18 cells infected with Wolbachia
Reagents: long dsRNA against Drosophila genes, 0.25 µg dsRNA per well of a 384-well plate
Timing: 5 days
Treatment: cells persistently infected with Wolbachia before knock-down; no added drug
Measured: 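Automated imaging of bacterial rRNA staining divided by host cell count, reported as plate-normalised robust z-score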
Direction: Wolbachia per cell robust z: higher = more Wolbachia per host cell than the plate typical
Active means: 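Hit when robust z is 1.5 or more, or -1.5 or less, in at least two of three replicates; excludes dsRNAs with several or no targets, genes not expressed in JW18 and well A1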

After knock-down of CG13654 the results were Wolbachia per cell robust z, rep 1 = 0.712; Wolbachia per cell robust z, rep 2 = 0.5; Wolbachia per cell robust z, rep 3 = 0.526; inactive. Depletion of CG34159 resulted in: Wolbachia per cell robust z, rep 1 = 1.2; Wolbachia per cell robust z, rep 2 = 0.447; Wolbachia per cell robust z, rep 3 = -0.249; inactive. Knock-down of 7SLRNA:CR32864 + 7SLRNA:CR42652 gave: Wolbachia per cell robust z, rep 1 = -0.88; Wolbachia per cell robust z, rep 2 = -0.827; Wolbachia per cell robust z, rep 3 = -0.119; inactive. Against CG1889 #1 the deposit lists Wolbachia per cell robust z, rep 1 = 0.714; Wolbachia per cell robust z, rep 2 = 0.254; Wolbachia per cell robust z, rep 3 = -0.56; inactive. Knock-down of CG1889 #2 came out at: Wolbachia per cell robust z, rep 1 = 0.489; Wolbachia per cell robust z, rep 2 = -0.768; Wolbachia per cell robust z, rep 3 = 0.569; inactive. Depletion of Sfp24F resulted in: Wolbachia per cell robust z, rep 1 = 0.325; Wolbachia per cell robust z, rep 2 = -2.08; Wolbachia per cell robust z, rep 3 = 0.0749; inactive.

Knock-down of Antp #1 came out at: Wolbachia per cell robust z, rep 1 = 0.753; Wolbachia per cell robust z, rep 2 = -0.209; Wolbachia per cell robust z, rep 3 = 0.151; inactive. Silencing of Antp #2 came out at: Wolbachia per cell robust z, rep 1 = 0.673; Wolbachia per cell robust z, rep 2 = -0.254; Wolbachia per cell robust z, rep 3 = 0.664; inactive. CG15814 scored Wolbachia per cell robust z, rep 1 = 0.224; Wolbachia per cell robust z, rep 2 = 0.774; Wolbachia per cell robust z, rep 3 = 0.194; inactive. CG15651 gave Wolbachia per cell robust z, rep 1 = 0.637; Wolbachia per cell robust z, rep 2 = 0.774; Wolbachia per cell robust z, rep 3 = 0.152; inactive. CG5556 scored Wolbachia per cell robust z, rep 1 = 0.289; Wolbachia per cell robust z, rep 2 = 1.1; Wolbachia per cell robust z, rep 3 = 0.177; inactive. For eIF5, the values are Wolbachia per cell robust z, rep 1 = 0.151; Wolbachia per cell robust z, rep 2 = 0.0447; Wolbachia per cell robust z, rep 3 = 0.756; inactive.

With knock-down of CG10307 #1, the record shows Wolbachia per cell robust z, rep 1 = 0.692; Wolbachia per cell robust z, rep 2 = -1.82; Wolbachia per cell robust z, rep 3 = 0.64; inactive. Depletion of CG10307 #2 came out at: Wolbachia per cell robust z, rep 1 = -0.408; Wolbachia per cell robust z, rep 2 = 1.22; Wolbachia per cell robust z, rep 3 = -0.17; inactive. Against CG33270, the values are Wolbachia per cell robust z, rep 1 = 0.335; Wolbachia per cell robust z, rep 2 = -5.28; Wolbachia per cell robust z, rep 3 = 0.867; inactive. CG9399 gave Wolbachia per cell robust z, rep 1 = 0.205; Wolbachia per cell robust z, rep 2 = -0.16; Wolbachia per cell robust z, rep 3 = 0.128; inactive. Against CR33294, the values are Wolbachia per cell robust z, rep 1 = -0.872; Wolbachia per cell robust z, rep 2 = -1.61; Wolbachia per cell robust z, rep 3 = -4.46; inactive. After knock-down of CG42807 the results were Wolbachia per cell robust z, rep 1 = -0.0927; Wolbachia per cell robust z, rep 2 = 0.00796; Wolbachia per cell robust z, rep 3 = 0.793; inactive.

Silencing of SerT #1 resulted in: Wolbachia per cell robust z, rep 1 = -1.92; Wolbachia per cell robust z, rep 2 = -1.03; Wolbachia per cell robust z, rep 3 = -0.691; inactive. Depletion of SerT #2 came out at: Wolbachia per cell robust z, rep 1 = 0.972; Wolbachia per cell robust z, rep 2 = -0.332; Wolbachia per cell robust z, rep 3 = 0.109; inactive. For ArgRS, the values are Wolbachia per cell robust z, rep 1 = 0.715; Wolbachia per cell robust z, rep 2 = -2.78; Wolbachia per cell robust z, rep 3 = -1.09; inactive. Silencing of CG14020 resulted in: Wolbachia per cell robust z, rep 1 = 0.156; Wolbachia per cell robust z, rep 2 = 1.06; Wolbachia per cell robust z, rep 3 = 0.334; inactive. fred #1 showed Wolbachia per cell robust z, rep 1 = -0.102; Wolbachia per cell robust z, rep 2 = 0.343; Wolbachia per cell robust z, rep 3 = 0.844; inactive. With knock-down of fred #2, the screen gave Wolbachia per cell robust z, rep 1 = 0.45; Wolbachia per cell robust z, rep 2 = 0.716; Wolbachia per cell robust z, rep 3 = -0.668; inactive.

Depletion of fred #3 came out at: Wolbachia per cell robust z, rep 1 = 0.134; Wolbachia per cell robust z, rep 2 = 1.17; Wolbachia per cell robust z, rep 3 = 1.61; inactive. fred #4 showed Wolbachia per cell robust z, rep 1 = 0.742; Wolbachia per cell robust z, rep 2 = 0.539; Wolbachia per cell robust z, rep 3 = -0.0896; inactive. With knock-down of fred #5, the record shows Wolbachia per cell robust z, rep 1 = -1.53; Wolbachia per cell robust z, rep 2 = -1.09; Wolbachia per cell robust z, rep 3 = -0.286; inactive.
